Test results published in paper PMC3295573, “Structural Insights into a Unique Legionella pneumophila Effector LidA Recognizing Both GDP and GTP Bound Rab1 in Their Active State” (2012).

Molecular target: LidA(224-559) (Legionella pneumophila strain Corby)
Experiment: crystal structure

Question: How did the stoichiometry N turn out when “Rab1(S25N; 1-176) (from UniProt P62820 1-176) (domain or fragment)” was run?
Answer: 1
